Source: PubChem BioAssay AID720517 (National Center for Advancing Translational Sciences (NCATS), 2013)
The entries are a selection whose mix differs from that of the whole data set. Records with an inconclusive call do not appear. The source made the active and inactive calls. Calls follow the shape of the dose curve; as a rule, active = well fitted activation curve with a large enough effect; inconclusive = small, poorly fitted or top-dose-only effect; inactive = flat fitted curve, though single readings scatter.

Assay: qHTS for Inhibitors of Cell Surface uPA Generation: FP59 Counterscreen for Cherry-picked Compounds; also: 0% is about no effect
Conditions: FP59 anthrax toxin cytotoxicity counterscreen, cells; at 115 µM (top of the series)

Which activity (protection from FP59) does the source give for `O=C(O)CNc1ccc([As](=O)(O)O)cc1` here?
The activity (protection from FP59) was inactive: -1.29%.
